A mixed list of measured activities; the numbers were collected in NIAID ChemDB.

All rows: growth or infection tests; organism: Varicella zoster virus; endpoint: EC50

Two numbers with a dash give a range or band. An empty or dashed field is not shown. ECn: concentration that inhibits the pathogen or its effect by n%. Rows are shuffled and stem from different studies.

| smiles | strain | method | cells | value |
|---|---|---|---|---|
| Cc1c(Br)cc(Br)c2ncc(CSCc3ccccc3Cl)n12 | YS/R (TK-) | plaque count | HEL | >5 µg/mL |
| CCCCCCCCc1cc2cn([C@H]3C[C@H](F)[C@@H](CO)O3)c(=O)nc2o1 | 07 (TK-) |  |  | >20 µM |
| Nc1ncc2c(ncn2/C=C2/CC2CO)n1 |  | ELISA |  | >100 µM |
| Cc1cc([C@H]2C[C@H](O)[C@@H](CO)O2)c(Cl)cc1F | (TK-)/YS/R | plaque count | HEL | >200 µM |
| Nc1nc2c(ncn2CC[C@H](O)CO)c(=O)[nH]1 | ULF PE 9/84 (TK+) |  | HEL | 425–600 µM |
| O=c1[nH]c(=O)n([C@@H]2C[C@H](CO)C[C@H]2CO)cc1I | OKA |  | HEL | >100 µg/mL |
| O=c1[nH]c(=O)n([C@@H]2O[C@H](CO)[C@@H](O)[C@@H]2O)cc1/C=C/Br | Kawaguchi acyclovir-resistant mutant A7 | plaque count |  | 0.000106 µg/mL |
| C=CCN(c1ccc(NC(=S)Nc2ccc(NC(C)=O)cc2)cc1Cl)C1CCCCC1 | ELLEN | ELISA | HFF | >10 µg/mL |
| COc1cc(OC)c(NC(=S)Nc2ccc(NC(=O)c3ccccc3Br)cc2)cc1Cl | ELLEN | ELISA | HFF | >10 µg/mL |
| CC(NC(=S)Nc1ccc(NC(=O)c2nccc3ccccc23)cc1)c1cc2ccccc2o1 | ELLEN | ELISA | HFF | 0.05 µg/mL |
| O=c1ccn([C@@H]2O[C@H](/C=C/C=C(Br)Br)[C@@H](O)[C@H]2O)c(=O)[nH]1 | 07/1 |  | HEL | >120 µM |
| O=C(O)P(=O)(O)O | Clinical isolate VZV-13 | cytopathic effect | HEL | 88.4 µM |
| Nc1nc2c(ncn2CC(CO)CCO)c(=O)[nH]1 | 9/84-C | cytopathic effect / ELISA | HEL | >100 µM |
| COc1cc(OCc2ccccc2)c(NC(=S)Nc2ccc(NC(C)=O)cc2)cc1Cl | ELLEN | ELISA | HFF | 3.5 µg/mL |
| O=c1[nH]c(=O)n([C@H]2C[C@H](O)[C@@H](CO)O2)cc1I | 26 | plaque count | HEL | 0.78 µg/mL |
| Cc1cccn2c(C3SCCS3)cnc12 | YS |  | HEL | >1000 µM |
| Nc1nc2c(ncn2CCC(CO)CO)c(=O)[nH]1 | Clinical isolate VZV-33 | cytopathic effect | HEL | 2.49 µM |
| OC[C@H]1O[C@@H](c2cc(Br)c(F)cc2F)C[C@@H]1O | (TK-)07/1 | plaque count | HEL | >200 µM |
| CC(=O)Nc1ccc(NC(=S)Nc2cc(Cl)c(OCC#N)c(Cl)c2)cc1 | ELLEN | ELISA | HFF | >10 µg/mL |
| Cc1cc([C@H]2C[C@H](O)[C@@H](CO)O2)c(F)cc1F | (TK-)07/1 | plaque count | HEL | >200 µM |
| O=c1[nH]cnc2c1ncn2C1C[C@H](CO)[C@@H](CO)C1 | 07/1 (TK-) |  | HEL | >100 µg/mL |
| CC(NC(=S)Nc1ccc(NC(=O)c2nccc3ccccc23)c(C#N)c1)c1ccc(F)cc1 | ELLEN | ELISA | HFF | 0.049 µg/mL |
| Nc1nc2c(ncn2COC(CO)CO)c(=O)[nH]1 | 9/84-C | cytopathic effect / ELISA | HEL | 51 µM |
| OC[C@H]1O[C@@H](c2cc(F)c(F)cc2F)C[C@@H]1O | (TK-)07/1 | plaque count | HEL | >200 µM |
| COc1cc(OC)c(NC(=S)Nc2ccc(NC(=O)c3ccccc3F)cc2Cl)cc1Cl | ELLEN | ELISA | HFF | >10 µg/mL |
| Nc1ncc2ncn(/C=C3\CC3CO)c2n1 |  | ELISA |  | >100 µM |
| COc1ccccc1C(=O)Nc1ccc(NC(=S)NCCc2cc3ccccc3o2)cc1 | ELLEN | ELISA | HFF | 0.09 µg/mL |
| Nc1nc(F)nc2c1ncn2[C@@H]1C=C(CO)[C@@H](O)[C@H]1O | 07/1 YS/R (TK-) | cytopathic effect | HEL | 2 µg/mL |
| Nc1nc2c(ncn2CCC(O)CO)c(=O)[nH]1 | 9/84 + PER + ULF + BIR + Y | cytopathic effect / ELISA | HEL | 44.5 µM |
| C[C@H](NC(=S)Nc1ccc(NC(=O)c2cncs2)nc1)c1cc(C(F)(F)F)cc(C(F)(F)F)c1 | ELLEN | ELISA | HFF | >7.5 µg/mL |
| Nc1nc2c(ncn2COCCO)c(=O)[nH]1 | TK- |  | HEL | 200 µM |
| O=C(O)P(=O)(O)O | 9/84-A | cytopathic effect / ELISA | HEL | 140 µM |
| Nc1nc2c(ncn2CC[C@@H](O)CO)c(=O)[nH]1 | TK- |  | HEL | >250 µM |
| Nc1nc2c(ncn2C[C@@H](CO)CCO)c(=O)[nH]1 | 9/84 | cytopathic effect / ELISA | HEL | 0.7 µM |
| O=c1ccn([C@@H]2C[C@H](CO)C[C@H]2CO)c(=O)[nH]1 | OKA |  | HEL | >100 µg/mL |
| O=c1[nH]c(=O)n([C@H]2C[C@H](O)[C@@H](CO)O2)cc1I | ULF PE 9/84 (TK+) |  | HEL | 30–75 µM |
| Nc1cc([C@H]2C[C@H](O)[C@@H](CO)O2)c(F)cc1F | TK+/YS | plaque count | HEL | >200 µM |
| COc1cc(OC)c(NC(=S)Nc2ccc(NC(=O)c3ccccc3C)nc2)cc1Cl | ELLEN | ELISA | HFF | >15 µg/mL |
| COc1cc(OC)c(NC(=S)Nc2ccc(NC(=O)c3cccc(NS(C)(=O)=O)c3)cc2)cc1Cl | ELLEN | ELISA | HFF | >10 µg/mL |
| O=C(NCc1ccc(Cl)cc1)c1c[nH]c2ccc(CCCO)cc2c1=O | MAG | plaque count |  | 0.1 µM |
| Cn1cc(C(=O)NCc2ccc(Cl)cc2)c(=O)c2cc(CN3CCOCC3)ccc21 | DN zoster isolate | plaque count | HFF | 0.1 µM |

The last 4 rows once more:

smiles	strain	method	cells	value
COc1cc(OC)c(NC(=S)Nc2ccc(NC(=O)c3ccccc3C)nc2)cc1Cl	ELLEN	ELISA	HFF	>15 µg/mL
COc1cc(OC)c(NC(=S)Nc2ccc(NC(=O)c3cccc(NS(C)(=O)=O)c3)cc2)cc1Cl	ELLEN	ELISA	HFF	>10 µg/mL
O=C(NCc1ccc(Cl)cc1)c1c[nH]c2ccc(CCCO)cc2c1=O	MAG	plaque count		0.1 µM
Cn1cc(C(=O)NCc2ccc(Cl)cc2)c(=O)c2cc(CN3CCOCC3)ccc21	DN zoster isolate	plaque count	HFF	0.1 µM